# Potato spindle tuber viroid, loop 15: variant abundance in plants

The measurements come from Wu et al. 2024 (doi:10.1371/journal.ppat.1012142).

Region: loop 15 of PSTVd (intermediate strain), upper and lower strand joined, each 5' to 3', the first 7 letters being the upper strand, closing pairs included. Wild type: GGAAACCGCUACUAC. Varied positions (N): GGAAACCGNNNNNNC.

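A pool of all variants was put on leaves of three Nicotiana benthamiana plants. Samples came from the inoculated region at 5 days, the leaf margin at 10 and upper systemic leaves at 12.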

Values are reads per thousand in the sample; higher means more abundant, 0 means not found.
Each value is the mean of three plants.
"Pool" is the share in the plasmid pool used as inoculum, on the same scale.
The inoculated region was read from the minus strand, the other sites from the plus strand.
Wild type was 33.9 per thousand in the pool and the most common sequence in every sample (inoculated region 202, 200, 159; leaf margin 724, 746, 710; systemic leaves 856, 883, 880).
With 43,870-66,106 reads a sample, very low values are single reads.
Sequences that differ at fixed positions probably stem from PCR or sequencing errors, and defective variants can be carried along by functional ones.

GGAAACCGAUCCUGC (pool 0.304): inoculated region 0.109; leaf margin 0; systemic leaves 0.
GGAAACCGCGUCAUC (pool 0.128): inoculated region 0.123; leaf margin 0.00668; systemic leaves 0.
GGAAACCGAGAACUC (pool 0.176): inoculated region 0.0753; leaf margin 0; systemic leaves 0.00537.
GGAAACCGAAUAUCC (pool 0.224): inoculated region 0.0813; leaf margin 0; systemic leaves 0.
GGAAACCGGCUCGGC (pool 0.256): inoculated region 0.0697; leaf margin 0; systemic leaves 0.
GGAAACCGCGUUGUC (pool 0.256): inoculated region 0.130; leaf margin 0; systemic leaves 0.
GGAAACCGUAGGUAC (pool 0.272): inoculated region 0.376; leaf margin 0.0860; systemic leaves 0.0676.
GGAAACCGUAUACGC (pool 0.272): inoculated region 0.128; leaf margin 0.00668; systemic leaves 0.
GGAAACCGUAUGGGC (pool 0.256): inoculated region 0.138; leaf margin 0.00742; systemic leaves 0.
GGAAACCGGGCGUUC (pool 0.272): inoculated region 0.372; leaf margin 0.0765; systemic leaves 0.0107.
GGAAACCGCCGUGGC (pool 0.176): inoculated region 0.0966; leaf margin 0.0187; systemic leaves 0.
GGAAACCGUUGCGGC (pool 0.240): inoculated region 0.0495; leaf margin 0.00742; systemic leaves 0.
GGAAACCGGCUGGAC (pool 0.176): inoculated region 0.122; leaf margin 0.0187; systemic leaves 0.
GGAAACCGUGACAGC (pool 0.304): inoculated region 0.193; leaf margin 0.0121; systemic leaves 0.
GGAAACCGUCCUUGC (pool 0.208): inoculated region 0.122; leaf margin 0.0141; systemic leaves 0.
GGAAACCGCGUAAUC (pool 0.272): inoculated region 0.0778; leaf margin 0; systemic leaves 0.
GGAAACCGCUGGUGC (pool 0.144): inoculated region 0.373; leaf margin 0.0869; systemic leaves 0.0215.
GGAAACCGUUAUGCC (pool 0.288): inoculated region 0.152; leaf margin 0.00742; systemic leaves 0.
GGAAACCGCAGUGUC (pool 0.304): inoculated region 0.197; leaf margin 0.0121; systemic leaves 0.00537.
GGAAACCGGUACAUC (pool 0.256): inoculated region 0.126; leaf margin 0.0195; systemic leaves 0.0107.
GGAAACCGUGUGGGC (pool 0.208): inoculated region 0.0777; leaf margin 0.00668; systemic leaves 0.
GGAAACCGACGCCAC (pool 0.304): inoculated region 0.0858; leaf margin 0.0187; systemic leaves 0.
GGAAACCGUCUGGCC (pool 0.160): inoculated region 0.118; leaf margin 0.0128; systemic leaves 0.
GGAAACCGGGGAUAC (pool 0.128): inoculated region 0.0878; leaf margin 0.0215; systemic leaves 0.
GGAAACCGGCUAUUC (pool 0.0960): inoculated region 0.0909; leaf margin 0; systemic leaves 0.
GGAAACCGCUAACAC (pool 0.144): inoculated region 0.337; leaf margin 0.0902; systemic leaves 0.0622.
GGAAACCGCGCCGCC (pool 0.336): inoculated region 0.0550; leaf margin 0; systemic leaves 0.00504.